Measured values as given in the supplement of paper PMC12637763.
This is one part of the list. Env chains of viruses from a treatment-interruption trial, translated from the printed DNA. IC50 / IC80 of two broadly neutralizing antibodies; lower = more sensitive virus; >50 µg/ml means not reached and <0.001 µg/ml is below the lowest dose. No active / inactive call.

B1: HIV-1 Env, reservoir clone (protein)
chain: MRVMGTQRNYPLFWNWVMIIFWMIIIGNANKLWVTVYYGVPVWKEAETTLFCASDAKAYDTEVHNVWATHACVPTDPDPREIPLENVTEKFNMWKNDMVEQMHQDIISLWDQSLKPCVKLTPLCVTLNCTNATAINATGSIVGNSTDMKNCSFNVTTIRRDKMQKEYALFYNLDIVQIDNSDNSSYRLVSCNTSVITQACPKVSFEPIPIHYCAPAGFAIIKCNNKTFNGTGPCTNVSTVQCTHGIKPVVSTQLLLNGSLAEEKIMIRSENITNNAKTIIVQLKESVTINCTRPGNNTRKSIRIGPGQTYYATGAIIGDIRQAHCNVSKKEWMNTLQKVAKQLGEHFISAQNISFNSSSGGDVEITTHSFICGGEFFYCNTTGLFNSTWIRNNTWTNNDTWIYNESSSNWTGTITLQCRIKQYVNLWQRVGRAMYAPPIRGDINCTSNITGLLLTRDGGGNNESQTFRPIGGDMRDNWRSELYKYKVVKIEPLGVAPTYAKRRVVGREKRAVGLGAVFLGFLGAAGSTMGAASITLTVQARQLLSGIVQQQSNLLKAIEAQQHLLRLTVWGIKQLQARVLALERYLRDQQLLGIWGCSGKLICPTTVPWNSSWSNKTFNEIWDNMTWLQWDKEISNYTETIYALIEQSQNQQEKNEQDLLALDKWANLWNWFDITKWLWYIKIFIMIVGGLIGLRIVFAVFSLVNRVRQGYSPLSFQILNHRQREPDRPGRIEEEGGEQDRDRSVRLVSGFLALAWDDLRSLCLFLYHRLRDSVLIATRGVELLGHSILKGLRLGWEALKHLWNLLSYWSQELKNSAISLLDTIAIAVANWTDRVIELGQAAGRAIRHIPRRIRQGLERALL
B2: HIV-1 Env, reservoir clone (protein)
chain: MRVKGIKKNYQRLWRWGTMLLGLLMICNAEKLWVTVYYGVPVWKEATTTLFCASDAKGYDTEAHNVWATHACVPTDPNPQEIDLVNVNESFNMWKNNMVEQMHQDIISLWDQSLKPCVRLTPLCVNLNCTDLKKGNSTQNTTNTTKLEEKGEGEVKNCSFNITTNYNDKKQQEYAFFYNLDVVKVGDNDTSYRLISCNTSVVTQACPKINFDPIPIHYCAPAGFAILKCKDKKFNGTGICTNVSTVQCTHGIKPVVSTQLLLNGSLAEEEVVIRSENFTNNAKTIIVQLNEAVAINCIRPNNNTRKSIHMGPGKAFYTTGDIIGDIRQAHCNISKGEWNKTLSRVVEKLQGQFGNKTINFNQSSGGDPEIVMHSFNCAGEFFYCNTTGLFNSTWISPSNSTWNNTWNSTENIGENITLPCRIKQIVNRWQEVGKAIYAPPIKGPISCSSNITGILLTRDGGNDNITNNTETFRPGGGDMRDNWRSELYKYKVVEIKPLGVAPTKAKRRVVQREKRAVGLGAVLFGFLGAAGSTMGAASVTLTVQARQLLSGIVQQQNNLLRAIEAQQHLLQLTVWGIKQLQARVLAVERYLRDQQLLGLWGCSGKLICTTAVPWNTSWSNKSMTQIWNHTTWMQWEREIDNYTNIIYNLIEDSQNQQEQNKKELLELDKWASLWNWFDITNWLWYIKLFIMIVGGLIGLRIVFAVLSIVKRVRQGYSPLSLQTLLPTQRGPDRPEGIEEGGGERDRDRSRRLVDGFLALIWDDLRSLCLFSYHRLRDLLLIVTRIVGLLGRRGWDILKYWWNLLQYWIQELKNSAVSLLNYTAIAVAEGTDRIIEVLQRIFRAVLHIPTRIRQGLERALV
B3: HIV-1 Env, reservoir clone (protein)
chain: MRVMGMLRNWQHLEKWGLLFLGLLIICSAKDNLWVTVYYGVPVWKEATTTLFCASDAKGYDKEAHNVWATHACVPTDPNPQEIWLKNVTENFNIWRNDMVEQMHTDIISLWDESLKPCVKITPLCVTLNCTNAKFNSTSANSTQEEPGAVQNCTFNTTTELRDKKQKVYALFYRLDLIPLKENNASNNASNEYILINCNTSIIKQACPKVSWDPIPIHYCAPAGYAILKCRDKKFNGTGPCKNVSTVQCTHGVKPVVSTQLLLNGSLAEEDIVIRSENISDNAKTIIVSLNEPVQINCTRPGNNTRKGIHLGPGQTFYARGDIIGDIRKAHCKINKSQWNKTLAQVSTKLKSLLNITGVVFKPPVGGDLEVTMHSFNCRGEFFYCNTSGLFNFSYSVPTNETITINETITIPCKIKQIINMWQGVGQAMYAPPIAGNITCNSNITGILLIRDGGPNSTNNDTFRPGGGDMRDNWRSELYKYKVVEIEPLGVAPTRARRQVVRRERRAVGIGAVFLGFLGAAGSTMGAASITLTVQARQLLSGIVQQQRNLLQAIEAQQHLLKLTVWGIKQLQARVLAVERYLKDQQLLGIWGCSGKLICTTSVPWNSSWSNRSLDEIWNNMTWIDWEREISNYSQEIYKLIEQSQNQQEKNEQELLALDKWASLWSWFDITNWLWYIKIFIMIVGGLIGLRIVFAVLAIVNRVRKGYSPLSLQTLIPSPRGPDRPDGIEEGGGEQGRDRSVRLVTGFLALVWDDLRNLCLFSYRHLRDFILIAARVVDRGLRRGWEILKYLWNLTKYWSQELKNSATSLFNSTAIVVAEGTDRIIEALQAVIRAVLHIPRRIRQGFERALL

target: antibody 10-1074; experiment: neutralization IC50; higher = virus less sensitive to the antibody
Protocol: (§1)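 Pseudovirus bearing the Env chain mixed with antibody, from 50 µg/ml in fivefold dilutions, on TZM-bl reporter cells, in duplicate.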

Binder	neutralization IC50 [µg/mL]
B1	0.023
B2	0.008
B3	> 50

target: antibody 3BNC117; experiment: as above
Protocol: as §1

Binder	neutralization IC50 [µg/mL]
B1	0.105
B2	0.055
B3	9.82

target: antibody 10-1074; experiment: neutralization IC80; higher = virus less sensitive to the antibody
Protocol: as §1

Binder	neutralization IC80 [µg/mL]
B1	0.086
B2	0.024
B3	> 50

target: antibody 3BNC117; experiment: as above
Protocol: as §1

Binder	neutralization IC80 [µg/mL]
B1	0.534
B2	0.201
B3	> 50
